Laboratory results: PubChem BioAssay AID1259414 (Drosophila RNAi Screening Center, 2018)
Screen: 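Fly genes that alter Wolbachia amount inside host cells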 (primary screen). Cell system: Drosophila JW18 cells infected with Wolbachia. Reagent: long dsRNA against Drosophila genes, 0.25 µg dsRNA per well of a 384-well plate. Duration: 5 days. Conditions: cells persistently infected with Wolbachia before knock-down; no added drug. Detection: 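Automated imaging of bacterial rRNA staining divided by host cell count, reported as plate-normalised robust z-score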. Direction: Wolbachia per cell robust z: higher = more Wolbachia per host cell than the plate typical. Call rule: 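Active if absolute robust z reaches 1.5 in two or more of three replicates, leaving out multi- or no-target dsRNAs, genes unexpressed in JW18 and A1 wells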.
The screen tested about 24,000 reagents; this is a random part of those with a known target gene and a result. Of all reagents, about 1,210 (5%) got an active call. 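Inactive calls also include excluded dsRNAs with several or no targets, genes unexpressed in JW18, and well A1, regardless of score.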 No sequences are given here.

Gene	DRSC id	Wolbachia per cell robust z, rep 1	Wolbachia per cell robust z, rep 2	Wolbachia per cell robust z, rep 3	outcome
HINT1 (histidine triad nucleotide binding protein 1)	DRSC26502	-2.37	-1.59	-1.32	active
Kaz (Katazuke)	DRSC14637	-0.508	-2	-4.44	active
b (black)	DRSC03487	0.658	0.192	0.243	inactive
b (black)	DRSC28837	0.889	-0.592	-1.34	inactive
fd102C (forkhead domain 102C)	DRSC17203	1.47	-0.732	0.873	inactive
fd102C (forkhead domain 102C)	DRSC26567	0.77	0.82	0.207	inactive
Sbp2 (SECIS-binding protein 2)	DRSC10766	0.972	1.85	0.349	inactive
CG44837	DRSC10130	0.781	0.398	-0.342	inactive
CG44837	DRSC10133	0.273	0.352	0.858	inactive
CG44837	DRSC10558	0.512	-0.487	1.22	inactive
CG44837	DRSC25062	1.13	0.239	1.38	inactive
CG44837	DRSC28859	-0.245	0.229	0.323	inactive
Roc2 (Regulator of cullins 2)	DRSC07313	-0.203	0.237	-0.129	inactive
Roc2 (Regulator of cullins 2)	DRSC27174	-0.937	0.298	0.233	inactive
CR30409 (pseudo)	DRSC22058	0.366	0.0842	-0.875	inactive
CG17270	DRSC15209	1.2	-0.214	-1.98	inactive
Oatp74D (Organic anion transporting polypeptide 74D)	DRSC09491	-0.936	-0.771	-6.32	inactive
Oatp74D (Organic anion transporting polypeptide 74D)	DRSC10883	-2.74	0.387	-0.526	inactive
dtn (detonator)	DRSC17939	-0.411	-0.0431	-0.198	inactive
dtn (detonator)	DRSC29824	-5.86	-0.493	-10.1	active
PDZ-GEF (PDZ domain-containing guanine nucleotide exchange factor)	DRSC03231	0.709	0.665	0.765	inactive
DCP2 (Decapping protein 2)	DRSC10597	0.278	-0.0428	0.354	inactive
unc-4	DRSC20381	0.693	0.716	-2.11	inactive
unc-4	DRSC22074	-1.2	0.24	0.682	inactive
unc-4	DRSC25459	-2.58	-0.497	-0.635	inactive
CG8229	DRSC07114	0.495	0.528	0.727	inactive
CG8229	DRSC27067	-0.894	-0.667	-2.01	inactive
sunn	DRSC21659	-1.17	-1.57	-1.27	inactive
CG9512	DRSC20189	-0.00813	0.452	-0.246	inactive
CG34338	DRSC38801	0.688	0.254	0.719	inactive
Gbs-70E (Glycogen binding subunit 70E)	DRSC11055	-0.199	-0.0892	-0.411	inactive
t-Grip128 (testis-specific gamma-tubulin ring protein 128)	DRSC07853	0.788	-0.919	0.0162	inactive
t-Grip128 (testis-specific gamma-tubulin ring protein 128)	DRSC26796	0.0142	-0.334	-1.03	inactive
t-Grip128 (testis-specific gamma-tubulin ring protein 128)	DRSC39091	-0.273	-0.0107	-0.281	inactive
Ptip (PAX transcription activation domain interacting protein)	DRSC10660	-0.798	0.13	-0.359	inactive
Ptip (PAX transcription activation domain interacting protein)	DRSC11048	1.17	0.258	0.351	inactive
Socs16D (Suppressor of Cytokine Signaling at 16D)	DRSC23165	0.0187	-0.259	2.08	inactive
Socs16D (Suppressor of Cytokine Signaling at 16D)	DRSC26838	-0.371	-0.183	-0.315	inactive
Tomosyn	DRSC19365	0.302	0.114	0.308	inactive
Tomosyn	DRSC19692	-0.646	-3.43	-2.55	active
Tomosyn	DRSC19782	-4.84	-1.37	0.672	inactive
Tomosyn	DRSC19842	0.437	0.653	-1.69	inactive
Tomosyn	DRSC25047	0.12	-1.48	-0.00152	inactive
ninaD (neither inactivation nor afterpotential D)	DRSC02886	0.391	-3.64	-0.166	inactive
ninaD (neither inactivation nor afterpotential D)	DRSC24484	-1.03	-0.856	-1.27	inactive
cpb (capping protein beta)	DRSC00809	-6.74	-1.29	-1.84	active
cpb (capping protein beta)	DRSC29870	0.492	0.782	0.186	inactive
Rab19	DRSC11260	0.133	0.232	0.205	inactive
Rab19	DRSC29485	0.654	0.0231	0.0663	inactive
CG12448	DRSC01967	-2.16	0.272	0.271	inactive
betaggt-I (beta subunit of type I geranylgeranyl transferase)	DRSC03494	-0.779	-5.57	-0.293	inactive
CG42675	DRSC12157	-2.5	-6.27	-0.829	inactive
CG42675	DRSC21868	-2.85	-1.45	-0.603	inactive
CG42675	DRSC24431	2.25	1.59	0.412	inactive
CG42675	DRSC26577	-0.959	-0.917	0.163	inactive
babos	DRSC03923	-0.828	-0.752	-0.771	inactive
babos	DRSC04397	-1.01	0.814	-0.828	inactive
CG10479	DRSC23395	-2.17	-0.474	0.468	inactive
CG3568	DRSC18312	0.0124	-0.114	-3.99	inactive
CG3568	DRSC27793	-0.00191	0.633	0.938	inactive
CG15213	DRSC10213	-0.101	0.0181	-2.81	inactive
CG15213	DRSC41496	-0.396	-0.0812	-0.682	inactive
Fer3 (48 related 3)	DRSC16133	-9.93	-0.484	-1.61	inactive
Fer3 (48 related 3)	DRSC26669	-0.636	0.0453	0.61	inactive
Fer3 (48 related 3)	DRSC39065	-1.73	-1.73	-0.548	inactive
ldd (lipid droplet defective)	DRSC20558	-1.2	-1.45	-6.6	inactive
ldd (lipid droplet defective)	DRSC22696	-0.218	0.474	0.119	inactive
CG4928	DRSC19342	-2.28	0.213	-1.33	inactive
CG4928	DRSC29007	1.06	-0.618	0.00847	inactive

Not a retest: 8 of the entries above.
Gene	DRSC id	Wolbachia per cell robust z, rep 1	Wolbachia per cell robust z, rep 2	Wolbachia per cell robust z, rep 3	outcome
cpb (capping protein beta)	DRSC29870	0.492	0.782	0.186	inactive
Rab19	DRSC11260	0.133	0.232	0.205	inactive
Rab19	DRSC29485	0.654	0.0231	0.0663	inactive
CG12448	DRSC01967	-2.16	0.272	0.271	inactive
betaggt-I (beta subunit of type I geranylgeranyl transferase)	DRSC03494	-0.779	-5.57	-0.293	inactive
CG42675	DRSC12157	-2.5	-6.27	-0.829	inactive
CG42675	DRSC21868	-2.85	-1.45	-0.603	inactive
CG42675	DRSC24431	2.25	1.59	0.412	inactive
